Experiments:
[1] = target: PpAChE1 (Pardosa pseudoannulata, UniProt V5QQC6); assay: Inhibition of recombinant PpAChE1 enzyme activity (IC50, ki); conditions: read-out: IC50 on BTC hydrolysis, PpAChE1 expressed in Sf9 cells, 10 min incubation with inhibitor
[2] = target: PpAChE4 (Pardosa pseudoannulata, UniProt A0A1B1FIW2); assay: Inhibition of recombinant PpAChE4 enzyme activity (IC50, ki); conditions: not completely inhibited even at very high concentrations

Chains of the proteins cited; added tags and fusions are not shown. Residues count along the entry.
UniProt V5QQC6, 26-608 limits assumed: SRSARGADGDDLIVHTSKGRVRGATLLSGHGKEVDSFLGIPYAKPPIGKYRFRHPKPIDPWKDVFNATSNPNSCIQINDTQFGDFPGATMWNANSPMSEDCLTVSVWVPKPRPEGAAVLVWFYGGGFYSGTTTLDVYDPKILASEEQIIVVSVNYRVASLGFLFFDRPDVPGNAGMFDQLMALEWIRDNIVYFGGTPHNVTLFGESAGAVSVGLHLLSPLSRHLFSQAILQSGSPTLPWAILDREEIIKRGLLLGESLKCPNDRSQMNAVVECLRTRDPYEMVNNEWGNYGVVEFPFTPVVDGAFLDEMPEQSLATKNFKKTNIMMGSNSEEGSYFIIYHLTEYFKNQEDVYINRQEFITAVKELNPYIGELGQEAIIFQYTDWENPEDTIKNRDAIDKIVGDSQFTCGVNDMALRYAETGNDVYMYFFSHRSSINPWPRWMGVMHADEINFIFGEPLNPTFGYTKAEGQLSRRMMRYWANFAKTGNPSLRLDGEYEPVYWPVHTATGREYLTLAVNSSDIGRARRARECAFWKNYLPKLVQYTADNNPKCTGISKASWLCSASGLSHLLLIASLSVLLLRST
UniProt A0A1B1FIW2, 23-545 limits assumed: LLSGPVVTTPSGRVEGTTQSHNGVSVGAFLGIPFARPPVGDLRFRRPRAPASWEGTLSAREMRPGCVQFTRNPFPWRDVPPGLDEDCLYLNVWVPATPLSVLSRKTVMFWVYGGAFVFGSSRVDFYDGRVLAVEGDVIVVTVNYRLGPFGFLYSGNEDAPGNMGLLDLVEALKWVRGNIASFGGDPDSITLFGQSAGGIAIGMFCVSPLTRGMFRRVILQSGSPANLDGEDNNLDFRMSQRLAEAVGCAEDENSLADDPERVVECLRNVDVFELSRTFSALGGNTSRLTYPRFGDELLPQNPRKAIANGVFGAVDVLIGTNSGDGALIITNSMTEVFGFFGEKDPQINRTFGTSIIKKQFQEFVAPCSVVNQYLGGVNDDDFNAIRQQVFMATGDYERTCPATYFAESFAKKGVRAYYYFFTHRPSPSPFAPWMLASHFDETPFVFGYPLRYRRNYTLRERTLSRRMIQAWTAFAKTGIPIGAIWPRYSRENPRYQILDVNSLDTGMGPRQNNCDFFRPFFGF

Compound: CC(C)NP(=O)(NC(C)C)OP(=O)(NC(C)C)NC(C)C
- IC50 [1]: > 200 µM
- Inhibition against ATC hydrolysis (in words) [2]: very weak inhibition

From paper PMC4919072, “Identification and Biochemical Properties of Two New Acetylcholinesterases in the Pond Wolf Spider (Pardosa pseudoannulata)” (2016)
